A mixed list of measured activities; the numbers were collected in NIAID ChemDB.

All rows: target-level tests; species: HIV-1; target: Protease; read-out: IC50

ICn: concentration for n% inhibition. Conditions beyond the fields shown may differ between rows.

{"structure": "O=c1oc2cc(O)ccc2c(O)c1-c1ccc(O)cc1", "value": "2 µM"}
{"structure": "CCCCC1(CCc2cccc(NS(=O)(=O)c3ccc(C(F)(F)F)cn3)c2)COC(=O)C(C(CC)c2cccc(NS(=O)(=O)c3ccc(C(F)(F)F)cn3)c2)=C1O", "value": "0.023 µM"}
{"structure": "CCOC(=O)c1cn(CC(O)CSc2ccccc2)cc1-c1ccccc1", "value": ">200 µM"}
{"structure": "CCCCC1(CCc2cccc(NS(=O)(=O)c3ccc(C)cc3)c2)COC(=O)C(C(CC)c2cccc(NS(=O)(=O)c3ccc(C)cc3)c2)=C1O", "value": "0.322 µM"}
{"structure": "Cc1cn([C@@H]2C[C@@H](N=[N+]=[N-])[C@H](COC(=O)C(C)C(C)C(=O)N[C@@H](Cc3ccccc3)[C@H](O)C(=O)N3CSC(C)(C)[C@H]3C(=O)NC(C)(C)C)O2)c(=O)[nH]c1=O", "value": "<5 µM"}
{"structure": "CC(=O)N(CC[C@@H](O)[C@H](Cc1ccccc1)NC(=O)c1cccc(O)c1C)[C@@H](Cc1ccc(Cl)cc1)C(=O)NC(C)(C)C", "value": "2.5 µM"}
{"structure": "Cc1ccccc1CNC(=O)[C@@H]1CSCN1C(=O)[C@@H](O)[C@H](Cc1ccccc1)NC(=O)CC(C)(C)C(=O)O", "value": "<5 µM"}
{"structure": "CC(C)C[C@H](NC(=O)[C@@H]1CCCN1C(=O)[C@@H](O)[C@H](Cc1ccccc1)NC(=O)[C@H](CC(N)=O)NC(=O)CCc1ccccc1)C(=O)N[C@H](C(N)=O)C(C)C", "value": "~5 µM"}
{"structure": "C/C=C/c1ccc(OC2OC(CO)C(O)C(O)C2O)c(OC)c1", "value": ">100 µM"}
{"structure": "Cc1c(O)ccc2c(O)c(Oc3ccc4ccc(=O)oc4c3)c(=O)oc12", "value": "9 µM"}
{"structure": "CCOC(=O)c1cn(CC(O)CNc2cccc(N)c2)cc1-c1ccccc1", "value": ">200 µM"}
{"structure": "Cc1c(O)cccc1C(=O)N[C@@H](Cc1ccccc1)[C@H](O)CCNCC(=O)NC(C)(C)C", "value": "16.9 µM"}
{"structure": "CC(C)C[C@H](NC(=O)[C@@H](NC(=O)CCCCCCCCCCCCCCC(=O)N[C@@H](CC(N)=O)C(=O)N[C@@H](Cc1ccccc1)C(=O)O)C(C)O)C(=O)N[C@@H](Cc1ccc(-c2ccccc2)cc1)C(N)=O", "mutations": "PR-L10I K45R I54V L63P A71V V82T L90M I93L", "value": "~1.1 µM"}
{"structure": "CCOC(=O)c1cn(CC(O)CNc2ccc(C(=O)OC)cc2)cc1-c1ccccc1", "value": "118 µM"}
{"structure": "N[C@@H](CO)C(=O)N[C@@H](Cc1ccccc1)[C@@H](O)C(=O)NCC1CCCCC1", "value": ">1000 µM"}
{"structure": "NS(=O)(=O)c1ccc(NC(=O)c2ccc(SSc3ccc(C(=O)Nc4ccc(S(N)(=O)=O)cc4)cc3)cc2)cc1", "value": "13 µM"}
{"structure": "CCOC(=O)c1cn(CC(O)CNc2cccc(C)c2)cc1-c1ccccc1", "value": ">200 µM"}
{"structure": "Cc1ccc(S(=O)(=O)N[C@@H](C)C(=O)N[C@H](C(=O)N[C@@H](Cc2ccccc2)[C@@H](O)[C@H](O)[C@H](Cc2ccccc2)NC(=O)[C@@H](NC(=O)[C@H](C)NS(=O)(=O)c2ccc(C)cc2)C(C)C)C(C)C)cc1", "mutations": "PR-V82F", "value": "0.006 µM"}
{"structure": "CC(C)[C@H](NC(=O)OCc1ccccc1)C(=O)N[C@@H](Cc1ccccc1)C(O)[C@H](Cc1ccccc1)NC(=O)[C@@H](NC(=O)OCc1ccccc1)C(C)C", "value": "0.003 µM"}
{"structure": "CCOC(=O)COc1ccc(-c2cc(O)c(SCCc3ccccc3)c(=O)o2)cc1", "value": "0.57 µM"}
{"structure": "CC(C)=CCc1ccc2c(C3=C(O)C(=O)C(c4c[nH]c5cc(CC=C(C)C)ccc45)=C(O)C3=O)c[nH]c2c1", "value": "0.18 µM"}
{"structure": "CC(C)C[C@H](NC(=O)[C@@H](NC(=O)CCCCCCCCCCCCCCC(=O)N[C@@H](CC(N)=O)C(=O)N[C@@H](Cc1ccc(-c2ccccc2)cc1)C(=O)O)C(C)O)C(=O)N[C@@H](Cc1ccccc1)C(N)=O", "value": "1.2 µM"}
{"structure": "CON[C@H](C(=O)NC(=O)[C@H]1N(C(=O)[C@@H](O)[C@H](Cc2ccccc2)NC(=O)[C@@H](NC(=O)[C@H](Cc2c[nH]c3ccccc23)NC(C)=O)C(C)C)CSC1(C)C)C(C)C", "value": "0.018 µM"}
{"structure": "Cc1ccc(S(=O)(=O)N(CC[C@@H](O)[C@H](Cc2ccccc2)NC(=O)c2cc(C)cc(O)c2C)C(C)C)cc1", "value": "2.5 µM"}
{"structure": "CC[C@@H](C)[C@H](NC(=O)C1CCCN1C(=O)[C@@H](OC)[C@H](Cc1ccccc1)NC(=O)[C@H](CC(N)=O)NC(=O)CCc1ccccc1)C(=O)N[C@H](C(N)=O)C(C)C", "value": ">5 µM"}
{"structure": "COc1ccc2c(O)c(Oc3ccc4ccc(=O)oc4c3)c(=O)oc2c1", "value": "4 µM"}
{"structure": "CC(C)[C@H](NC(=O)[C@H](C)NC(=O)OCc1ccccc1)C(=O)N[C@@H](Cc1ccccc1)[C@@H](O)[C@H](O)[C@H](Cc1ccccc1)NC(=O)[C@@H](NC(=O)[C@H](C)NC(=O)OCc1ccccc1)C(C)C", "mutations": "PR-V82F", "value": "0.0149 µM"}
{"structure": "CC(C)[C@H](NC(=O)[C@H](C)NS(=O)(=O)Cc1ccccc1)C(=O)N[C@@H](Cc1ccccc1)C(O)C(O)[C@H](Cc1ccccc1)NC(=O)[C@@H](NC(=O)[C@H](C)NS(=O)(=O)Cc1ccccc1)C(C)C", "value": "0.023 µM"}
{"structure": "CC(=O)O[C@H]1CC[C@]2(C)[C@H]3CC=C4[C@@H]5CC(C)(C)CC[C@]5(C(=O)O)CC[C@@]4(C)[C@]3(C)CC[C@H]2C1(C)C", "value": "9 µM"}
{"structure": "CCOC(=O)c1cn(CC(O)CNc2cccc(Cl)c2)cc1-c1ccccc1", "value": ">200 µM"}
{"structure": "CON[C@H](C(=O)NC(=O)[C@H]1N(C(=O)[C@@H](O)[C@H](Cc2ccccc2)NC(=O)[C@@H](NC(=O)[C@H](C)NC(=O)Oc2ccccc2)C(C)C)CSC1(C)C)C(C)C", "value": "0.018 µM"}
{"structure": "COC(=O)[C@]12CCC(C)(C)C[C@H]1C1=CC[C@@H]3[C@@]4(C)CC[C@H](O)C(C)(C)[C@@H]4CC[C@@]3(C)[C@]1(C)CC2", "value": "20 µM"}
{"structure": "CC(C)=CCc1ccc2[nH]cc(C3=C(O)C(=O)C(c4c[nH]c5ccccc45)=C(O)C3=O)c2c1", "value": "0.37 µM"}
{"structure": "CC[C@H](CC[C@@H](C)[C@H]1CC[C@H]2[C@@H]3CC=C4C[C@@H](O)CC[C@]4(C)[C@H]3CC[C@]12C)C(C)C", "value": ">100 µM"}
{"structure": "NC(=O)CCNC(=O)[C@@H]1CCCN1C(=O)[C@@H](O)[C@H](Cc1ccccc1)NC(=O)[C@H](CC(N)=O)NC(=O)CCc1ccccc1", "value": ">5 µM"}
{"structure": "CCCCC1(CCc2cccc(NS(=O)(=O)c3ccc(F)cc3)c2)COC(=O)C(C(CC)c2cccc(NS(=O)(=O)c3ccc(F)cc3)c2)=C1O", "value": "0.229 µM"}
{"structure": "CC(C)(C)NC(=O)[C@H]1C[C@@H](O)CCN1C(=O)[C@@H](O)[C@H](Cc1ccccc1)NC(=O)[C@H](CC(N)=O)NC(=O)OCc1ccccc1", "value": ">5 µM"}
{"structure": "CC(=O)N(CC[C@@H](O)[C@H](Cc1ccccc1)NC(=O)c1cccc(O)c1C)[C@@H](Cc1ccc2ccccc2c1)C(=O)NC(C)(C)C", "value": "1.5 µM"}
{"structure": "CC(=O)NC(C(=O)NC[C@H]1O[C@@H](Oc2ccccc2)[C@H](O)[C@@H](OCc2ccccc2)[C@@H]1O)C(C)C", "value": ">100 µM"}
{"structure": "COC(=O)CCCC(=O)O[C@H]1CC[C@@]2(C)C(CC[C@]3(C)C2CC=C2C4CC(C)(C)CC[C@]4(C(=O)OC)CC[C@]23C)C1(C)C", "value": ">50 µM"}
{"structure": "CC(C)[C@H](NC(=O)[C@H](Cc1ccccc1)NOC(=O)c1ccccc1)C(=O)N[C@@H](Cc1ccccc1)[C@@H](O)[C@H](O)[C@H](Cc1ccccc1)NC(=O)[C@@H](NC(=O)[C@H](Cc1ccccc1)NOC(=O)c1ccccc1)C(C)C", "value": "0.01 µM"}
{"structure": "CCCCC1(CCc2cccc(NS(=O)(=O)c3ccc(OC)cc3)c2)COC(=O)C(C(CC)c2cccc(NS(=O)(=O)c3ccc(OC)cc3)c2)=C1O", "value": "0.825 µM"}
{"structure": "CC(C)[C@H](NC(=O)[C@H](C)NC(=O)OCc1ccccc1)C(=O)N[C@@H](Cc1ccccc1)[C@@H](O)[C@H](O)[C@H](Cc1ccccc1)NC(=O)[C@@H](NC(=O)[C@H](C)NC(=O)OCc1ccccc1)C(C)C", "mutations": "PR-V82A", "value": "0.013 µM"}
{"structure": "CC(C(=O)O)C(C)C(=O)N[C@@H](Cc1ccccc1)[C@H](O)C(=O)N1CSC(C)(C)[C@H]1C(=O)NC(C)(C)C", "value": "<5 µM"}
{"structure": "CC1(C)CC[C@]2(C(=O)O)CC[C@]3(C)C(=CCC4[C@@]5(C)CC[C@H](OC(=O)CCC(=O)O)C(C)(C)C5CC[C@]43C)C2C1", "value": "4 µM"}
{"structure": "CC(C)C[C@H](NC(=O)[C@@H](NC(=O)CCCCCCCCCCCCCCC(=O)N[C@@H](CC(N)=O)C(=O)N[C@@H](Cc1ccccc1)C(=O)O)C(C)O)C(=O)N[C@@H](Cc1cc(I)c(Oc2cc(I)c(O)c(I)c2)c(I)c1)C(N)=O", "mutations": "PR-L10I K45R I54V L63P A71V V82T L90M I93L", "value": "~0.4 µM"}
{"structure": "CC(C)(C)NC(=O)[C@@H]1CSCN1C(=O)[C@@H](O)[C@H](Cc1ccccc1)NC(=O)CCCC(=O)O", "value": "<5 µM"}
{"structure": "COc1ccc(-c2c(O)c3ccc(OC)cc3oc2=O)cc1", "value": "3.5 µM"}
{"structure": "CC(=O)N(CC[C@@H](O)[C@H](Cc1ccccc1)NC(=O)c1cccc(O)c1C)[C@@H](Cc1ccccc1)C(=O)NC(C)(C)C", "value": "0.09 µM"}
{"structure": "NS(=O)(=O)c1ccc(NC(=O)c2ccccc2SSc2ccccc2C(=O)Nc2ccc(S(N)(=O)=O)cc2)cc1", "value": "8.4 µM"}
{"structure": "NC(=O)C[C@H](NC(=O)COc1cccc2ccccc12)C(=O)N[C@@H](Cc1ccccc1)[C@H](O)C(=O)N1CSC[C@H]1C(=O)NC1CC1", "value": "<0.05 µM"}
{"structure": "CC(C)(C)C(=O)OC[C@@H]1[C@@H](O)[C@H](OC(=O)C(C)(C)C)[C@H](O)C[NH+]1Cc1ccccc1", "value": ">100 µM"}
{"structure": "C[C@@H]1CC[C@]2(C(=O)O)CC[C@]3(C)C(=CCC4[C@@]5(C)CC[C@H](OC(=O)CC(=O)O)C(C)(C)C5CC[C@]43C)C2[C@H]1C", "value": "6 µM"}
{"structure": "CCC(=O)N(CC[C@@H](O)[C@H](Cc1ccccc1)NC(=O)c1cccc(O)c1C)[C@@H](Cc1ccccc1)C(=O)NC(C)(C)C", "value": "0.38 µM"}
{"structure": "CC(C)(C)NC(=O)[C@@H]1C=C(c2ccccc2)CN1C(=O)[C@@H](O)[C@H](Cc1ccccc1)NC(=O)[C@H](CC(N)=O)NC(=O)OCc1ccccc1", "value": "~0.05 µM"}
{"structure": "O=c1oc(-c2ccccc2)cc(O)c1SCCc1ccccc1", "value": "1.26 µM"}
{"structure": "CC(C)(C)NC(=O)[C@H]1N(C(=O)[C@@H](O)[C@H](Cc2ccccc2)NC(=O)[C@H](CC(N)=O)NC(=O)COc2cccc(Nc3ccccc3)c2)CSC1(C)C", "value": "<0.05 µM"}
{"structure": "COc1ccc2c(O)c(S(=O)(=O)c3ccc(C)cc3)c(=O)oc2c1", "value": ">50 µM"}

A second listing of 4 rows from above:

CON[C@H](C(=O)NC(=O)[C@H]1N(C(=O)[C@@H](O)[C@H](Cc2ccccc2)NC(=O)[C@@H](NC(=O)[C@H](Cc2c[nH]c3ccccc23)NC(C)=O)C(C)C)CSC1(C)C)C(C)C ; value: 0.018 µM
CCOC(=O)c1cn(CC(O)CNc2cccc(N)c2)cc1-c1ccccc1 ; value: >200 µM
COc1ccc2c(O)c(S(=O)(=O)c3ccc(C)cc3)c(=O)oc2c1 ; value: >50 µM
CC(C)C[C@H](NC(=O)[C@@H]1CCCN1C(=O)[C@@H](O)[C@H](Cc1ccccc1)NC(=O)[C@H](CC(N)=O)NC(=O)CCc1ccccc1)C(=O)N[C@H](C(N)=O)C(C)C ; value: ~5 µM